Series [1] has as its system B. mandrillaris trophozoites. The series can be described thus: Nitroxoline structure-activity relationship dose response (CellTiter Glo). The conditions noted are these: 72 h, sigmoidal curve fit. The format is cell-based, Balamuthia mandrillaris.
Series [2] deals with B. mandrillaris trophozoites. It is filed as cell-based, Balamuthia mandrillaris.

Where two headings read alike, the source gives them in different places.

6-Nitroquinolone [compound 15]: the Hill slope in series [1] came out at 1.41.
For the substance Demecarium Bromide, in series [2] (20 µM, 72 h), the B-score came to 11.79.
Plicamycin returned a B-score in series [2] of 8.18.
